Results of unrelated studies side by side (data: NIAID ChemDB).

Shared fields: whole-cell or culture tests; organism: HIV-1

Neighbouring rows are from separate reports.

compound,measure,read by,cells,mutations,setting,strain,result
CSc1ccccc1C1CCCN1C(=O)C(CC(C)C)NC(=O)NCc1ccc(N)cc1,EC50,ATP / luminescence,MT-4,,,IIIB,13 µM
CC(C)n1cc(C(=O)O)c(=O)c2cc(Br)c(Oc3ccnc(Nc4ccc(C#N)cc4)n3)cc21,EC50,MTT,MT-4,K103N Y181C NNRTI-resistant,,IIIB,2.36 µM
CC(C)OC(=O)[C@H](C)N[P@](=O)(CO[C@H](C)Cn1cnc2c(N)ncnc21)Oc1ccccc1,EC50,luciferase / reporter gene,TZM-bl,,,NL4-3,0.00048 µM
Cc1cn([C@H]2C=C[C@@H](COP3(=O)Oc4ccccc4C(C)O3)O2)c(=O)[nH]c1=O,EC50,,CEM + CEM/O,,,,0.22 µM
Cc1ccc(NC(=S)Nn2c(-c3ccc(Cl)cc3)c[nH]c2=S)c(C)c1,EC50,syncytia / visual reading,C8166,,,IIIB,2.77 µM
Nc1ncnc2c1ncn2[C@H]1CC[C@@H](CO)O1,EC50,cytopathic effect / trypan blue,MT-4,,,IIIB Laboratory strain,2.5 µM
CCn1cc(C(=O)O)c(=O)c2cc(I)c(Oc3ccnc(Nc4ccc(C#N)cc4)n3)cc21,EC50,MTT,MT-4,K103N Y181C NNRTI-resistant,,IIIB,2.87 µM
CC(C)=CCN1c2cc(Cl)cc3[nH]c(=S)n(c23)C[C@@H]1C,EC95,,MT-4,RT-L74V K101E,,,0.4 µM
C=C(C)[C@@]12OC3(c4ccccc4)O[C@@H]1[C@@H]1[C@H](O)[C@](O)(CO)[C@@H](O)[C@]4(O)C(=O)C(C)=C[C@H]4[C@@]1(O3)[C@H](C)[C@H]2OC(=O)c1ccccc1,EC50,syncytia / visual reading,C8166,,,IIIB,5.36 µM
Cc1cn([C@H]2C=C[C@@H](COP3(=O)OCc4c(Cl)cccc4O3)O2)c(=O)[nH]c1=O,EC50,,CEM + CEM/O,,,,0.087 µM
COc1ccc(-c2c[nH]c(=S)n2NC(=S)Nc2ccc(Br)cc2)cc1,EC50,syncytia / visual reading,C8166,,,IIIB,2.2 µM
Cc1cn([C@H]2C=C[C@@H](COC(=O)NCCSC(=O)OC[C@@H]3C=C[C@H](n4cc(C)c(=O)[nH]c4=O)O3)O2)c(=O)[nH]c1=O,EC50,cytopathic effect / MTT,MT-4,RT-K103R V179D P225H,,EFV-resistant (RT K103R V179D P225H),14 µM
C[C@H](Cn1cnc2c(N)ncnc21)OCP(=O)(O)O,EC50,cytopathic effect / XTT / absorbance,MT-4,K65R,,NL4-3,11.3 µM
C=C(C)[C@@]1(OC(=O)c2ccccc2)[C@H](OC(C)=O)[C@@H]2[C@H](OC(C)=O)[C@@]3(C)O[C@@]4([C@@H]3OC(C)=O)[C@@H](OC(=O)c3ccccc3)[C@@H](C)C[C@H]4[C@@]2(O)[C@H](C)[C@@H]1OC(C)=O,EC50,syncytia / visual reading,C8166,,,IIIB,0.184 µM
C=CCN(C(=O)OCc1ccc([N+](=O)[O-])cc1)C1CCN(C[C@H]2CN(C(=O)c3ccccc3Cl)C[C@@H]2c2ccccc2)CC1,EC50,β-galactosidase,HeLa,,,BaL,<0.001 µM
CC(C)Cn1cc(C(=O)O)c(=O)c2cc(Br)c(Oc3ccnc(Nc4ccc(C#N)cc4)n3)cc21,EC50,MTT,MT-4,,,IIIB,0.82 µM
O=c1[nH]cnc2c1ncn2[C@H]1CC[C@@H](CO)O1,EC50,cytopathic effect / MTT,MT-4,RT-K103N Y181C,,NNRTI-resistant (RT K103N Y181C),9 µM
COc1ccc(-c2c[nH]c(=S)n2NC(=S)Nc2ccc(C)cc2C)cc1,EC50,syncytia / visual reading,C8166,,,IIIB,15.09 µM
Cc1cn([C@@H]2O[C@H](CO[Si](C)(C)C(C)(C)C)C3(OS(=O)(=O)C=C3N)[C@H]2O[Si](C)(C)C(C)(C)C)c(=O)n(C)c1=O,EC50,cytopathic effect,CEM,RT-Y181C,,IIIB,0.33 µg/mL
Cc1cc(C#N)cc(C)c1Oc1nc(Nc2ccc(C#N)cc2)nc(N)c1Br,EC50,MTT,MT-4,,,IIIB,0.0019 µM
CCCCCCCCC#Cc1cn(COCCO)c(=O)[nH]c1=O,EC50,RT activity,PBMC,,,LAI,23.7 µM
C=C(C)[C@@]1(OC(=O)c2ccccc2)[C@H](OC(C)=O)[C@@H]2[C@H](OC(C)=O)[C@@]3(C)O[C@@]4([C@@H]3O)[C@@H](OC(=O)c3ccccc3)[C@@H](C)C[C@H]4[C@@]2(O)[C@H](C)[C@@H]1OC(C)=O,EC50,syncytia / visual reading,C8166,,,IIIB,0.09509 µM
Cc1cn([C@H]2C=C[C@@H](CO)O2)c(=O)[nH]c1=O,EC50,cytopathic effect / trypan blue,MT-4,,,IIIB Laboratory strain,0.01 µM
S=C(Nc1ccc(Cl)cc1)Nn1c(-c2ccc(Cl)cc2)c[nH]c1=S,EC50,syncytia / visual reading,C8166,,,IIIB,8.92 µM
COC(=O)CNP(=O)(NCC(=O)OC)OC[C@H]1O[C@@H](n2cc(C)c(=O)[nH]c2=O)C[C@@H]1OC(C)=O,EC50,cytopathic effect / XTT,MT-4,,,,>100 µM
C=C(C)[C@@]12OC3(c4ccccc4)O[C@@H]1[C@@H]1[C@@H]4O[C@]4(CO)[C@@H](O)[C@]4(O)C(=O)C(C)=C[C@H]4[C@@]1(O3)[C@H](C)[C@H]2OC(=O)C(C)C,EC50,syncytia / visual reading,C8166,,,IIIB,7.35 µM
O=C(O)C(=O)CC(=O)c1cccn1CCCc1ccccc1,EC50,,,,,,15 µM
O=c1[nH]cnc2c1ncn2[C@H]1CC[C@@H](CO)O1,EC50,cytopathic effect / XTT,MT-4,,,,4 µM
O=c1oc2ccccc2c(O)c1C(c1ccccc1)c1c(O)c2ccccc2oc1=O,EC50,cytopathic effect / neutral red,MT-2,,,IIIB,>0.25 µM
CCCn1cc(C(=O)O)c(=O)c2cc(I)c(Oc3ccnc(Nc4ccc(C#N)cc4)n3)cc21,EC50,MTT,MT-4,,,IIIB,0.015 µM
Cc1cn([C@H]2C[C@H](N=[N+]=[N-])[C@@H](CO)O2)c(=O)[nH]c1=O,EC50,cytopathic effect / XTT,PBMC,,clinical isolate,CLADE D,0.01 µM
O=C(O)Cc1ccc(CCCC2(O)CCN(C[C@H]3CN(CC4CCCCC4)C[C@@H]3c3ccccc3)CC2)cc1,EC50,β-galactosidase,HeLa,,,BaL,<0.1 µM
CC(C)=CCN1Cc2cc(Cl)cc3[nH]c(=S)n(c23)C[C@@H]1C,EC50,cytopathic effect,MOLT-4,,,HE,0.25 µg/mL
Nc1ncnc2c1ncn2[C@H]1C=C[C@@H](CO)O1,EC50,cytopathic effect / trypan blue,MT-4,,,IIIB Laboratory strain,>125 µM
O=C(O)c1cccc(CCCC2(O)CCN(C[C@H]3CN(CC4CCCCC4)C[C@@H]3c3ccccc3)CC2)c1,EC90,β-galactosidase,HeLa,,,BaL,>1 µM
Cc1occc1C(=S)Nc1ccc(Cl)c(/C=N/OC(C)(C)C)c1,EC50,cytopathic effect,CEM,RT-L100I,,IIIB,0.13 µg/mL
CC(C)CN(C[C@@H](O)[C@H](Cc1ccccc1)NC(=O)O[C@H]1CO[C@H]2OCC[C@H]21)S(=O)(=O)c1ccc2c(c1)OCO2,EC50,,,,,PI-resistant Clinical isolate,<0.01 µM
S=C(Nc1cccc2ccccc12)Nn1c(-c2ccc(Br)cc2)c[nH]c1=S,EC50,syncytia / visual reading,C8166,,,IIIB,0.57 µM
CNC(=O)CSP(=O)(NCC(=O)OC)OC[C@H]1O[C@@H](n2cc(C)c(=O)[nH]c2=O)C[C@@H]1OC(C)=O,EC50,cytopathic effect / XTT,MT-4,,,,>100 µM
COc1cc([C@H](O)[C@H](CO)Oc2c(O)cc(C(=O)CCO)cc2O)ccc1O,EC50,syncytia / visual reading,C8166,,,IIIB,2.16 µg/mL
CNC(=O)CSP(=O)(NCC(=O)OC)OC[C@@H]1CC[C@H](n2cc(C)c(=O)[nH]c2=O)O1,EC50,cytopathic effect / XTT,MT-4,,,,2 µM
O=C(O)P(=O)(O)O,EC50,plaque count,HT4 + HT4-6C,,,LAI,133 µM
O=c1[nH]c2ccc(Cl)cc2n1Cc1c(F)cccc1F,EC50,cytopathic effect,CEM,RT-Y188H,,,>20 µM
Cc1cc(C#N)cc(C)c1Oc1nc(Nc2ccc(C#N)cc2)ncc1SCC(=O)N1CCSCC1,EC50,MTT,MT-4,Y181C,,,0.36 µM
CC(C)=CCOc1cc(NC(=S)c2ccoc2C)ccc1Cl,EC50,syncytia,CEM,RT-L100I,,IIIB,0.035 ± 0.009 µM
CC(C)OC(=O)OCOP(=O)(CO[C@H](C)Cn1cnc2c(N)ncnc21)OCOC(=O)OC(C)C,EC50,cytopathic effect / XTT / absorbance,MT-4,,,NL4-3,<0.06 µM
O=c1ccn([C@H]2CC[C@@H](CO)O2)c(=O)[nH]1,EC50,cytopathic effect / trypan blue,MT-4,,,IIIB Laboratory strain,48 µM
C=C[C@@]1(CO)CO[C@@H](n2cc(C)c(=O)[nH]c2=O)C1,EC50,,MT-4,,,,>100 µg/mL
Cc1cn([C@H]2C[C@H](N=[N+]=[N-])[C@@H](CO)O2)c(=O)[nH]c1=O,EC50,syncytia / visual reading,C8166,,,IIIB,0.00251 µM
Cc1cn([C@H]2C[C@H](N=[N+]=[N-])[C@@H](CO)O2)c(=O)[nH]c1=O,EC50,MTT,MT-4,K103N Y181C NNRTI-resistant,,IIIB,0.0052 µM
C=C(C)[C@@]1(OC(=O)c2ccccc2)[C@H](OC(C)=O)[C@@H]2[C@H](OC(C)=O)[C@@]3(C)O[C@@]4([C@@H]3O)[C@@H](O)[C@@H](C)C[C@H]4[C@@]2(O)[C@H](C)[C@@H]1OC(C)=O,EC50,syncytia / visual reading,C8166,,,IIIB,0.684 µM
Cc1ccc(NC(=O)NCCSCc2ccc(CNC(C)C)o2)cc1Cl,EC50,p24,U1,,,,>100 µM
CC(=O)c1cn(CC=C(CO)CO)c(=O)[nH]c1=O,EC90,RT activity,PBMC,,,LAI,39 µM
CCN(CC)CC.CNC(=O)CSP(=O)(O)OC[C@H]1O[C@@H](n2cc(C)c(=O)[nH]c2=O)C[C@@H]1F,EC50,cytopathic effect / XTT,MT-4,,,,0.3 µM
CC(C)=CCC[C@]1(C)C=Cc2c(ccc3c2C(=O)C(O)=C(C2=C(C4=C(O)C(=O)c5c(ccc6c5C=C[C@@](C)(CCC=C(C)C)O6)C4=O)C(=O)c4c(ccc5c4C=C[C@@](C)(CCC=C(C)C)O5)C2=O)C3=O)O1,EC50,cytopathic effect / XTT,CEM + CEM-SS,,,RF,<0.02 µM
CCCCCCCCC#Cc1cn(CC=C(CO)CO)c(=O)[nH]c1=O,EC90,RT activity,PBMC,,,LAI,72.3 µM
O=C(O)c1ccc(CCCC2(O)CCN(C[C@H]3CN(CC4CCCCC4)C[C@@H]3c3ccccc3)CC2)cc1,EC50,β-galactosidase,HeLa,,,BaL,<1 µM
C=C(C)[C@@]12OC3(c4ccccc4)O[C@@H]1[C@@H]1[C@H](O)[C@](O)(CO)[C@@H](O)[C@]4(O)C(=O)[C@@H](C)C=C4[C@@]1(O3)[C@H](C)[C@H]2OC(=O)c1ccccc1,EC50,syncytia / visual reading,C8166,,,IIIB,3.58 µM
Cc1cn([C@H]2CC(SSC(Cl)(Cl)Cl)[C@@H](CO)O2)c(=O)[nH]c1=O,EC50,syncytia,CEM,,,IIIB,<25 µM

Repeating the first 6 entries:

CSc1ccccc1C1CCCN1C(=O)C(CC(C)C)NC(=O)NCc1ccc(N)cc1 ; measure: EC50 ; read by: ATP / luminescence ; cells: MT-4 ; strain: IIIB ; result: 13 µM
CC(C)n1cc(C(=O)O)c(=O)c2cc(Br)c(Oc3ccnc(Nc4ccc(C#N)cc4)n3)cc21 ; measure: EC50 ; read by: MTT ; cells: MT-4 ; mutations: K103N Y181C NNRTI-resistant ; strain: IIIB ; result: 2.36 µM
CC(C)OC(=O)[C@H](C)N[P@](=O)(CO[C@H](C)Cn1cnc2c(N)ncnc21)Oc1ccccc1 ; measure: EC50 ; read by: luciferase / reporter gene ; cells: TZM-bl ; strain: NL4-3 ; result: 0.00048 µM
Cc1cn([C@H]2C=C[C@@H](COP3(=O)Oc4ccccc4C(C)O3)O2)c(=O)[nH]c1=O ; measure: EC50 ; cells: CEM + CEM/O ; result: 0.22 µM
Cc1ccc(NC(=S)Nn2c(-c3ccc(Cl)cc3)c[nH]c2=S)c(C)c1 ; measure: EC50 ; read by: syncytia / visual reading ; cells: C8166 ; strain: IIIB ; result: 2.77 µM
Nc1ncnc2c1ncn2[C@H]1CC[C@@H](CO)O1 ; measure: EC50 ; read by: cytopathic effect / trypan blue ; cells: MT-4 ; strain: IIIB Laboratory strain ; result: 2.5 µM

ECn: concentration that inhibits the pathogen or its effect by n%. Blank or dashed fields: not listed here.